Measured values from several laboratories, pooled; numbers as filed in NIAID ChemDB.

All rows: tests in culture; organism: HIV-1; cell line: CEM; method: syncytia; endpoint: fold resistance

Rows are shuffled and stem from different studies. Fold resistance has wild type as its base. An empty or dashed field is not shown.

compound | strain | changes | value
CC1=C(C(=O)Nc2cccc(C(=O)OC(C)C)c2)SCCO1 | TIBO-resistant (RT L100I) | RT-L100I | 2.25
CCOCn1c(Sc2cc(C)cc(C)c2)c(CC)c(=O)[nH]c1=O | IIIB | Nevirapine resistant (RT Y181C) | 22.5
CCCOC(=O)c1cc(NC(=S)OC(C)C)ccc1Cl |  | RT-L100I | 311
CC(C)OC(=O)c1cc(NC(=S)OC(C)C)ccc1Cl | IIIB | RT-Y188L | 69
COCCOC(=S)Nc1ccc(Cl)c(C(=O)OC(C)C)c1 |  | RT-Y181C | ≥52.6
CCOC(=O)c1cc(NC(=O)C2=C(CC)OCCS2)ccc1Cl | Nevirapine-resistant (RT V106A) | RT-V106A | 100
CCc1c(Cc2cc(C)cc(C)c2)n(COCCO)c(=O)[nH]c1=O | IIIB | RT-Y181C | 46.4
C=CCOC(=S)Nc1ccc(Cl)c(C(=O)OC(C)C)c1 |  | RT-L100I | 67.1
CCc1c(Sc2cc(C)cc(C)c2)n(COCCO)c(=S)[nH]c1=O | IIIB | Nevirapine resistant (RT Y181C) | 95
CCC(CC)OC(=O)c1cc(NC(=S)OC(C)C)ccc1Cl |  | RT-L100I | 17.6
CCc1c(Sc2cc(C)cc(C)c2)n(COCc2ccccc2)c(=O)[nH]c1=O | IIIB | RT-Y181I | 110
CCCOC(=O)c1ccc(C)c(NC(=O)C2=C(C)OCCS2)c1 | PYR-resistant (RT Y181C) | RT-Y181C | >10
CCOCn1c(Sc2ccccc2)c(CC)c(=O)[nH]c1=O | IIIB | RT-E138K | 21.7
CCSCC1=C(C(=O)Nc2ccc(Cl)c(C(=O)OC(C)C)c2)SCCO1 | TSAO-resistant (RT E138K) | RT-E138K | 1.5
Cc1occc1C(=S)Nc1ccc(Cl)c(/C=N/OC(C)(C)C)c1 | IIIB | RT-Y188L | >14
COC(=O)Oc1ccc(NC(=O)C2=C(C)OCCS2)cc1C(=O)OC(C)C | PYR-resistant (RT Y181C) | RT-Y181C | 12.9
CSCCOC(=S)Nc1ccc(Cl)c(C(=O)OC(C)C)c1 |  | RT-L100I | 11.1
CCOC(=O)c1cc(NC(=O)C2=C(C)OCCS2)ccc1Cl | TSAO-resistant (RT E138K) | RT-E138K | 65
C=CCSc1cc(NC(=S)OC(C)C)ccc1Cl |  | RT-L100I | 17.6
CC1=C(C(=O)Nc2ccc(F)c(C(=O)OC(C)C)c2)SCCO1 | TSAO-resistant (RT E138K) | RT-E138K | >28.6
CCCCOC(=O)c1cc(NC(=S)OC(C)C)ccc1Cl |  | RT-E138K | 13.7

A second listing of 2 rows from above:

| compound | strain | changes | value |
|---|---|---|---|
| COCCOC(=S)Nc1ccc(Cl)c(C(=O)OC(C)C)c1 |  | RT-Y181C | ≥52.6 |
| CCOC(=O)c1cc(NC(=O)C2=C(CC)OCCS2)ccc1Cl | Nevirapine-resistant (RT V106A) | RT-V106A | 100 |